Test results reported in patent US8933019B2, “Antiviral cell-penetrating peptides” (priority 2008, dated 2015).

Assays:
[1] = Cytotoxicity, XTT method, MT-2 cells; type: cell-based; conditions: human, read-out: CC50 (μM) ± SD, cytotoxicity in MT-2 cells
Method: Cytotoxicity of peptides in MT-2 cells and PBMC was measured by the XTT [(sodium 3′-(1-(phenylamino)-carbonyl)-3,4-tetrazolium-bis(4-methoxy-6-nitro) bezenesulfonic acid hydrate)] method as previously described (Jiang et al., 2004). Briefly, for MT-2 cells, 100 μl of a peptide at graded concentrations was added to an equal volume of cells (1×10^5 cells/ml) in 96-well plates followed by incubation at 37° C. for 4 days, which ran parallel to the neutralization assay in MT-2 (except medium was added instead of virus). In the case of PBMC, 5×10^5 cells/ml were used and the cytotoxicity was measured after 7 days. After addition of XTT (PolySciences, Inc.), the soluble intracellular formazan was quantitated colorimetrically at 450 nm 4 hr later with a reference at 620 nm. The percent of cytotoxicity and the CC50 values were calculated as above (Table 2 and Table 3).

HIV-1 IIIB = conditions: read-out: IC50 (μM) ± SD, antiviral activity against HIV-1 IIIB; MT-2 cells, p24 production, fourth day post-infection

Work on `CSCC[C@@H]1NC(=O)[C@H](Cc2c[nH]c3ccccc23)NC(=O)[C@@](C)(NC(=O)[C@H](CCC(=O)O)NC(=O)[C@@H](NC(=O)[C@H](CCCCN)NC(=O)[C@H](C)N)C(C)C)CCCC=CCCC[C@@](C)(C(=O)N[C@H](C(=O)N[C@@H](CC(C)C)C(=O)N[C@@H](CC(C)C)C(=O)N[C@H](C(=O)N[C@@H](C)C(N)=O)C(C)C)[C@@H](C)O)NC(=O)[C@H]([C@@H](C)O)NC1=O` [NYAD-210, AKVEXWMTXTLLVA] yielded a CC50 at 4 days [1] of over 112 µM and an IC50 (HIV-1 IIIB) of 5.15 ± 0.76 µM.
